In patent US20070112523A1 (priority 2003, published 2007):

Test system: vaccinia virus expressing the green fluorescent protein (vvGFP)
Experiment: vvGFP anti-viral assay (fluorescence reduction / CPE inhibition in BSC40 cells)
Format: cell-based
Settings: TC50 in BSC40 cells / IC50 against vvGFP

Compound | TI (therapeutic index, TC50 divided by IC50)
COC(=O)C(Cc1ccc(-c2ccc(F)c(Cl)c2)cc1)NC(=O)c1cc(-c2ccc(C(F)(F)F)cc2)ccc1O (centres unmarked) [TTP-B, 3-(3′-chloro-4′-fluoro-biphenyl-4-yl)-2-[(4-hydroxy-4′-trifluoromethyl-biphenyl-3-carbonyl)-amino]-propionic acid methyl ester] | about 130
COc1c(CCNC(=O)c2cc3ccccc3cc2O)cccc1-c1ccc([N+](=O)[O-])cc1 [TTP-A, 3-hydroxy-naphthalene-2-carboxylic acid [2-(2-methoxy-4′-nitro-biphenyl-3-yl)-ethyl]-amide] | about 75
